Data: publication PMC6819664, “Crystal Structure of African Swine Fever Virus dUTPase Reveals a Potential Drug Target” (2019)

Molecular target: African swine fever virus (ASFV) E165R dUTP nucleotidohydrolase (dUTPase) (African swine fever virus) (UniProt Q65199)
Assay: AUC

With “African swine fever virus (ASFV) E165R dUTP nucleotidohydrolase (dUTPase) (from UniProt Q65199 1-165) (enzyme)” the stoichiometry N was 3.
